Measured values from several laboratories, pooled; numbers as filed in NIAID ChemDB.

Common to all: growth or infection tests; agent: Herpes simplex virus 2; method: plaque count; read-out: EC50

Lines come from different laboratories, so protocols vary. ECn: concentration that inhibits the pathogen or its effect by n%.

{"compound": "C[C@H]1O[C@@H](O[C@H]2[C@@H](O)C[C@H](O[C@H]3CC[C@@]4(C)[C@H](CC[C@@H]5[C@@H]4C[C@@H](O)[C@]4(C)[C@@H](C6=CC(=O)OC6)CC[C@]54O)C3)O[C@@H]2C)C[C@H](O)[C@@H]1O", "cell line": "GMK AH1", "strain or isolate": "333", "value": "0.23 µM"}
{"compound": "CC(=O)Oc1cc(OC(C)=O)c2c(=O)c3ccccc3n(C)c2c1", "cell line": "HEF", "value": "8.4 µg/mL"}
{"compound": "Nc1ncnc2c1ncn2CC/C=C\\P(=O)(O)O", "cell line": "MRC-5", "strain or isolate": "MS", "value": ">300 µM"}
{"compound": "O=c1[nH]c(=O)n([C@H]2C[C@H](O)[C@@H](COP3(=O)OCc4c(Cl)cccc4O3)O2)cc1/C=C/Br", "cell line": "VERO", "strain or isolate": "G (TK+)", "value": ">128 µg/mL"}
{"compound": "CO[C@H]1[C@@H](O)C[C@H](O[C@H]2[C@@H](O)C[C@H](O[C@H]3[C@@H](O)C[C@H](O[C@H]4CC[C@@]5(C)[C@H](CC[C@@H]6[C@@H]5CC[C@]5(C)[C@@H](C7=CC(=O)OC7)CC[C@]65O)C4)O[C@@H]3C)O[C@@H]2C)O[C@@H]1C", "cell line": "GMK AH1", "strain or isolate": "333", "value": "0.09 µM"}
{"compound": "COc1cc(O)c2c(=O)c3ccc(OC)c(O)c3n(C)c2c1", "cell line": "HEF", "value": ">20 µg/mL"}
{"compound": "COC(=O)[C@H](C)NP(=O)(OCC1C/C1=C/n1cnc2c(N)ncnc21)Oc1ccccc1", "cell line": "VERO", "value": ">1 µM"}
{"compound": "COc1cc(OC)c2c(=O)c3ccc(OC)c(OC)c3n(C)c2c1", "cell line": "HEF", "value": ">20 µg/mL"}
{"compound": "C[C@H]1O[C@@H](O[C@H]2CC[C@@]3(C)[C@H](CC[C@@H]4[C@@H]3CC[C@]3(C)[C@@H](C5=CC(=O)OC5)CC[C@]43O)C2)C[C@H](O)[C@@H]1O[C@@H]1O[C@H](CO)[C@@H](O)[C@H](O)[C@H]1O", "cell line": "GMK AH1", "strain or isolate": "333", "value": "0.04 µM"}
{"compound": "NC(=O)c1cn([C@@H]2O[C@H](CO)[C@@H](O)[C@@H]2O)c2ncnc(N)c12", "cell line": "VERO", "strain or isolate": "MS", "value": "28 µM"}
{"compound": "Cn1c2ccccc2c(=O)c2c(O)cc3c(c21)C=CC(C)(C)O3", "cell line": "HEF", "value": ">20 µg/mL"}
{"compound": "CCC(C)C(N)C(=O)O[C@H]1C[C@H](n2cc(/C=C/Br)c(=O)[nH]c2=O)O[C@@H]1COP1(=O)OCc2cccc(C)c2O1", "cell line": "VERO", "strain or isolate": "G (TK+)", "value": ">128 µg/mL"}
{"compound": "Nc1nc(NC2CC2)c2ncn(C=C3CC3CO)c2n1", "cell line": "VERO", "value": "41 µM"}
{"compound": "CCCCCc1c2c(c3c(c1O)c(=O)c1cccc(O)c1n3C)C=CC(C)(C)O2", "cell line": "HEF", "value": "2 µg/mL"}
{"compound": "COC(=O)[C@H](C)NP(=O)(OC[C@H]1C/C1=C\\n1cnc2c(N)nc(N)nc21)Oc1ccccc1", "cell line": "VERO", "value": ">100 µM"}
{"compound": "Cc1cccc2c1OP(=O)(OC[C@H]1O[C@@H](n3cc(/C=C/Br)c(=O)[nH]c3=O)C[C@@H]1O)OC2", "cell line": "VERO", "strain or isolate": "G (TK+)", "value": ">128 µg/mL"}
{"compound": "C[C@H]1O[C@@H](O[C@H]2[C@@H](O)C[C@H](O[C@H]3[C@@H](O)C[C@H](O[C@H]4CC[C@@]5(C)[C@H](CC[C@@H]6[C@@H]5CC[C@]5(C)[C@@H](C7=CC(=O)OC7)CC[C@]65O)C4)O[C@@H]3C)O[C@@H]2C)C[C@H](O)[C@@H]1O", "cell line": "GMK AH1", "strain or isolate": "333", "value": "0.2 µM"}
{"compound": "CCCCCCCCCC(=O)O[C@H]1C[C@H](n2cc(/C=C/Br)c(=O)[nH]c2=O)O[C@@H]1COP1(=O)OCc2cccc(C)c2O1", "cell line": "VERO", "strain or isolate": "G (TK+)", "value": ">128 µg/mL"}
{"compound": "Nc1nc2c(ncn2OCC/C=C\\P(=O)(O)O)c(=O)[nH]1", "cell line": "MRC-5", "strain or isolate": "MS", "value": ">300 µM"}
{"compound": "COC(=O)[C@H](C)NP(=O)(OC[C@H]1C/C1=C/n1cnc2c(N)nc(N)nc21)Oc1ccccc1", "cell line": "VERO", "value": "15 µM"}
{"compound": "Cc1cccc2c1OP(=O)(OC[C@H]1O[C@@H](n3cc(/C=C/Br)c(=O)[nH]c3=O)C[C@@H]1OC(=O)CN)OC2", "cell line": "VERO", "strain or isolate": "G (TK+)", "value": ">128 µg/mL"}
{"compound": "C[C@H]1O[C@@H](O[C@H]2CC[C@]3(C=O)[C@H]4CC[C@]5(C)[C@@H](C6=CC(=O)OC6)CC[C@]5(O)[C@@H]4CC[C@]3(O)C2)C[C@H](O)[C@@H]1O", "cell line": "GMK AH1", "strain or isolate": "333", "value": "0.004 µM"}
{"compound": "CC(C)(C)C(=O)OCOP(=O)(COCCn1cnc2c(N)ncnc21)OCOC(=O)C(C)(C)C", "cell line": "VERO", "strain or isolate": "G", "value": "0.6 µM"}
{"compound": "O=c1[nH]c(=O)n([C@H]2C[C@H](O)[C@@H](COP3(=O)OCc4cc(Cl)ccc4O3)O2)cc1/C=C/Br", "cell line": "VERO", "strain or isolate": "G (TK+)", "value": ">128 µg/mL"}
{"compound": "CC1(C)C=Cc2c(cc(O)c3c(=O)c4cccc(O)c4[nH]c23)O1", "cell line": "HEF", "value": "0.73 µg/mL"}
{"compound": "C[C@H]1O[C@@H](O[C@H]2CC[C@@]3(C)[C@H](CC[C@@H]4[C@@H]3CC[C@]3(C)[C@@H](C5=CC(=O)OC5)CC[C@]43O)C2)C[C@H](O)[C@@H]1O", "cell line": "GMK AH1", "strain or isolate": "333", "value": "0.03 µM"}
{"compound": "CC(C)C(=O)O[C@H]1C[C@H](n2cc(/C=C/Br)c(=O)[nH]c2=O)O[C@@H]1COP1(=O)OCc2ccccc2O1", "cell line": "VERO", "strain or isolate": "G (TK+)", "value": ">128 µg/mL"}
{"compound": "Nc1nc2c(ncn2CC/C=C\\P(=O)(O)O)c(=O)[nH]1", "cell line": "MRC-5", "strain or isolate": "MS", "value": ">300 µM"}
{"compound": "COc1cc(O)c2c(=O)c3cccc(O)c3n(C)c2c1OC", "cell line": "HEF", "value": "0.74 µg/mL"}
{"compound": "Nc1ncnc2c1ncn2OCC/C=C\\P(=O)(O)O", "cell line": "MRC-5", "strain or isolate": "MS", "value": ">300 µM"}
{"compound": "N/C(=N/O)c1cn([C@@H]2O[C@H](CO)[C@@H](O)[C@@H]2O)c2ncnc(N)c12", "cell line": "VERO", "strain or isolate": "MS", "value": ">100 µM"}
{"compound": "CC(=O)Oc1cc(OC(C)=O)c2c(=O)c3ccccc3[nH]c2c1", "cell line": "HEF", "value": "6.5 µg/mL"}